The values that follow come from ChEMBL document CHEMBL5346973 (J Med Chem, 2023).

The chains behind the UniProt entries cited, without tags or fusion partners. Residues count along the entry.
UniProt P04756, 21-457 limits assumed: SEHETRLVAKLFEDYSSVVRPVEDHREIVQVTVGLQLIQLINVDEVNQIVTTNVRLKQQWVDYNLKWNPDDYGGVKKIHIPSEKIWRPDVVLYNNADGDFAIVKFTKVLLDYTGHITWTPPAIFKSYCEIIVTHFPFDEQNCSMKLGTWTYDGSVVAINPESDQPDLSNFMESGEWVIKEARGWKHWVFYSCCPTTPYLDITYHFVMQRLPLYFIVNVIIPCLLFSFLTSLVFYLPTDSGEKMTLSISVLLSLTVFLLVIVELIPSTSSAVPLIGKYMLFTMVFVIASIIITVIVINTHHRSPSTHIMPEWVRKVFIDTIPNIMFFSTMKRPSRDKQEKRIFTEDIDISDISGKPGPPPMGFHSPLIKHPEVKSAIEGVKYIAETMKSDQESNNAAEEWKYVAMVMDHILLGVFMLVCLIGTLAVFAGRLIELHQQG
UniProt P09690, 24-501 limits assumed: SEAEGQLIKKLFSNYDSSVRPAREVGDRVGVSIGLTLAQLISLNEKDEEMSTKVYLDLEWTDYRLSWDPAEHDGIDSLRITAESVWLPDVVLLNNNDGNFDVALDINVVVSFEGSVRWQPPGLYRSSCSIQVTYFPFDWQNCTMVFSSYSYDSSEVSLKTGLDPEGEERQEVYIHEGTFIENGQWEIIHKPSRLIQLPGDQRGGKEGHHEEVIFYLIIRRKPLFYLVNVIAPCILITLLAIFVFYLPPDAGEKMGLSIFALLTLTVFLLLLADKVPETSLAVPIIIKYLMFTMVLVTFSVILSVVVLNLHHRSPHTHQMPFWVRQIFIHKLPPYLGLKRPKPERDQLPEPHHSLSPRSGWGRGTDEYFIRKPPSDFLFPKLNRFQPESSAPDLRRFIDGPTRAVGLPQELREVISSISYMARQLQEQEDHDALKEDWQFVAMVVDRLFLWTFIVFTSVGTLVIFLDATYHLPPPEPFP
UniProt P02716, 25-520 limits assumed: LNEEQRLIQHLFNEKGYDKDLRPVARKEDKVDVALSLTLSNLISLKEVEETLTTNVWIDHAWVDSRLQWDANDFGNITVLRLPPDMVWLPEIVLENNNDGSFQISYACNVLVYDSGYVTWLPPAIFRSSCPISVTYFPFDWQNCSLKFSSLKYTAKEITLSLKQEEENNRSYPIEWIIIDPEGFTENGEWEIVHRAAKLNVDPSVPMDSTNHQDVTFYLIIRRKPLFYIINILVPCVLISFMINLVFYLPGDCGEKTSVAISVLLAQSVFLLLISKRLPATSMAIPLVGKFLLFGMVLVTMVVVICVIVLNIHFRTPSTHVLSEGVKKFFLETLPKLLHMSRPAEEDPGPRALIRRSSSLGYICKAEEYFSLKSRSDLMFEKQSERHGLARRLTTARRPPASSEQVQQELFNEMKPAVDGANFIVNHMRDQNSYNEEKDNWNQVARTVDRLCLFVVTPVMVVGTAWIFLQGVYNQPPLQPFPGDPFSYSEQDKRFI
UniProt P20782, 21-493 limits assumed: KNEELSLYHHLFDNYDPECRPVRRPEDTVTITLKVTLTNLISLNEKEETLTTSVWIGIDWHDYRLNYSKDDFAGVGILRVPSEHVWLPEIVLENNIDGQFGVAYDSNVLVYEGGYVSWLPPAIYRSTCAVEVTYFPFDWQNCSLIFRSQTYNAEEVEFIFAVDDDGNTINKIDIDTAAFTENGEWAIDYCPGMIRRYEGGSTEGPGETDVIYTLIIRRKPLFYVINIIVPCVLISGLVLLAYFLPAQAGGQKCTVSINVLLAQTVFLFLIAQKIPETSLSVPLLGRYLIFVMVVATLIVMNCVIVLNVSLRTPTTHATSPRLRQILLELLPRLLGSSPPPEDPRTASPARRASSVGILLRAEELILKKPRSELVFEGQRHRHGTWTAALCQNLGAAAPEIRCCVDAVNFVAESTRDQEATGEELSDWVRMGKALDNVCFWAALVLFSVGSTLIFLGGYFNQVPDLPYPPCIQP

pIC50: −log10 of the molar value.

In the assay the target is Nicotinic acetylcholine receptor alpha1/beta1/epsilon/delta (Mus musculus, UniProt P04756+P09690+P02716+P20782). Briefly: Antagonist activity at mouse alpha1beta1deltaepsilon nACh receptor expressed in Xenopus oocyte assessed as inhibition of acetylcholine-induced response at -70 mV holding potential by voltage-clamp based electrophysiological assay.

On to `CC[C@H](C)[C@H]1NC(=O)[C@H](CCCNC(=N)N)NC(=O)[C@H](CCCNC(=N)N)NC(=O)[C@@H](NC(=O)[C@H](Cc2ccc(O)cc2)NC(=O)[C@H](CCCNC(=N)N)NC(=O)[C@H](CCCNC(=N)N)NC(=O)[C@H](CCCNC(=N)N)NC(=O)[C@H](CCCNC(=N)N)NC(=O)[C@H](CC(=O)O)NC(=O)[C@H](Cc2ccc(O)cc2)NC(=O)[C@@H]2CCCN2C(=O)[C@H](CO)NC(=O)[C@H](CCCNC(=N)N)NC(=O)[C@@H]2CSSC[C@H](NC(=O)[C@@H](N)[C@@H](C)O)C(=O)N[C@@H](C)C(=O)N[C@@H](CO)C(=O)N[C@@H](CO)C(=O)NCC(=O)N[C@@H](CCCNC(=N)N)C(=O)N[C@@H](Cc3ccc(O)cc3)C(=O)N2)CSSC[C@@H](C(=O)N[C@H](C(=O)O)C(C)C)NC(=O)[C@H](C)NC(=O)[C@H](CC(=O)O)NC(=O)[C@H]([C@@H](C)O)NC1=O`, for which the pIC50 – broadly, the IC50 on a negative log10 scale, so that one unit is a factor of ten – was 5.71.
Next, `CC[C@H](C)[C@@H]1NC(=O)[C@H](CCCNC(=N)N)NC(=O)[C@H](CCCNC(=N)N)NC(=O)[C@@H](NC(=O)[C@H](Cc2ccc(O)cc2)NC(=O)[C@H](CCCNC(=N)N)NC(=O)[C@H](CCCNC(=N)N)NC(=O)[C@H](CCCNC(=N)N)NC(=O)[C@H](CCCNC(=N)N)NC(=O)[C@H](CC(=O)O)NC(=O)[C@H](Cc2ccc(O)cc2)NC(=O)[C@H](C)NC(=O)[C@H](CO)NC(=O)[C@H](CCCNC(=N)N)NC(=O)[C@@H]2CSSC[C@H](NC(=O)[C@@H](N)[C@@H](C)O)C(=O)N[C@H](CCCNC(=N)N)C(=O)N[C@@H](CO)C(=O)N[C@@H](CO)C(=O)NCC(=O)N[C@@H](CCCNC(=N)N)C(=O)N[C@@H](Cc3ccc(O)cc3)C(=O)N2)CSSC[C@@H](C(=O)N[C@H](C(=O)O)C(C)C)NC(=O)[C@H](C)NC(=O)[C@H](CC(=O)O)NC(=O)[C@H]([C@@H](C)O)NC1=O`: 6.07.
Consider `CC[C@H](C)[C@@H]1NC(=O)[C@H](CCCNC(=N)N)NC(=O)[C@H](CCCNC(=N)N)NC(=O)[C@@H](NC(=O)[C@H](Cc2ccc(O)cc2)NC(=O)[C@H](CCCNC(=N)N)NC(=O)[C@H](CCCNC(=N)N)NC(=O)[C@H](C)NC(=O)[C@H](CCCNC(=N)N)NC(=O)[C@H](CC(=O)O)NC(=O)[C@H](Cc2ccc(O)cc2)NC(=O)[C@@H]2CCCN2C(=O)[C@H](CO)NC(=O)[C@H](CCCNC(=N)N)NC(=O)[C@@H]2CSSC[C@H](NC(=O)[C@@H](N)[C@@H](C)O)C(=O)N[C@@H](CCCNC(=N)N)C(=O)N[C@@H](CO)C(=O)N[C@@H](CO)C(=O)NCC(=O)N[C@@H](CCCNC(=N)N)C(=O)N[C@@H](Cc3ccc(O)cc3)C(=O)N2)CSSC[C@@H](C(=O)N[C@H](C(=O)O)C(C)C)NC(=O)[C@H](C)NC(=O)[C@H](CC(=O)O)NC(=O)[C@H]([C@@H](C)O)NC1=O`, for which the pIC50 is 5.50.
Next, `CC[C@H](C)[C@@H]1NC(=O)[C@H](CCCNC(=N)N)NC(=O)[C@H](CCCNC(=N)N)NC(=O)[C@@H](NC(=O)[C@H](Cc2ccc(O)cc2)NC(=O)[C@H](CCCNC(=N)N)NC(=O)[C@H](CCCNC(=N)N)NC(=O)[C@H](CCCNC(=N)N)NC(=O)[C@H](CCCNC(=N)N)NC(=O)[C@H](CC(=O)O)NC(=O)[C@H](Cc2ccc(O)cc2)NC(=O)[C@@H]2CCCN2C(=O)[C@H](CO)NC(=O)[C@H](CCCNC(=N)N)NC(=O)[C@@H]2CSSC[C@H](NC(=O)[C@H](C)N)C(=O)N[C@@H](CCCNC(=N)N)C(=O)N[C@@H](CO)C(=O)N[C@@H](CO)C(=O)NCC(=O)N[C@@H](CCCNC(=N)N)C(=O)N[C@@H](Cc3ccc(O)cc3)C(=O)N2)CSSC[C@@H](C(=O)N[C@H](C(=O)O)C(C)C)NC(=O)[C@H](C)NC(=O)[C@H](CC(=O)O)NC(=O)[C@H]([C@@H](C)O)NC1=O`: 6.43; `CC(C)[C@H](NC(=O)[C@@H]1CSSC[C@H](NC(=O)[C@H](Cc2ccc(O)cc2)NC(=O)[C@H](CCCNC(=N)N)NC(=O)[C@H](CCCNC(=N)N)NC(=O)[C@H](CCCNC(=N)N)NC(=O)[C@H](CCCNC(=N)N)NC(=O)[C@H](CC(=O)O)NC(=O)[C@H](Cc2ccc(O)cc2)NC(=O)[C@@H]2CCCN2C(=O)[C@H](CO)NC(=O)[C@H](CCCNC(=N)N)NC(=O)[C@@H]2CSSC[C@H](NC(=O)[C@@H](N)[C@@H](C)O)C(=O)N[C@@H](CCCNC(=N)N)C(=O)N[C@@H](CO)C(=O)N[C@@H](CO)C(=O)NCC(=O)N[C@@H](CCCNC(=N)N)C(=O)N[C@@H](Cc3ccc(O)cc3)C(=O)N2)C(=O)N[C@@H](CCCNC(=N)N)C(=O)N[C@@H](CCCNC(=N)N)C(=O)N[C@@H](C)C(=O)N[C@@H]([C@@H](C)O)C(=O)N[C@@H](CC(=O)O)C(=O)N[C@@H](C)C(=O)N1)C(=O)O`: 5.32; `CC[C@H](C)[C@@H]1NC(=O)[C@H](CCCNC(=N)N)NC(=O)[C@H](CCCNC(=N)N)NC(=O)[C@@H]2CSSC[C@H](NC(=O)[C@H](Cc3ccc(O)cc3)NC(=O)[C@H](CCCNC(=N)N)NC(=O)CNC(=O)[C@H](CO)NC(=O)[C@H](CO)NC(=O)[C@H](CCCNC(=N)N)NC(=O)[C@@H](NC(=O)[C@@H](N)[C@@H](C)O)CSSC[C@@H](C(=O)N[C@H](C(=O)O)C(C)C)NC(=O)[C@H](C)NC(=O)[C@H](CC(=O)O)NC(=O)[C@H]([C@@H](C)O)NC1=O)C(=O)N[C@@H](CCCNC(=N)N)C(=O)N[C@@H](CO)C(=O)N1CCC[C@H]1C(=O)N[C@@H](Cc1ccc(O)cc1)C(=O)N[C@@H](C)C(=O)N[C@@H](CCCNC(=N)N)C(=O)N[C@@H](CCCNC(=N)N)C(=O)N[C@@H](CCCNC(=N)N)C(=O)N[C@@H](CCCNC(=N)N)C(=O)N[C@@H](Cc1ccc(O)cc1)C(=O)N2`: 6.06.
On to `CC[C@H](C)[C@@H]1NC(=O)[C@H](CCCNC(=N)N)NC(=O)[C@H](CCCNC(=N)N)NC(=O)[C@@H]2CSSC[C@H](NC(=O)[C@H](Cc3ccc(O)cc3)NC(=O)[C@H](CCCNC(=N)N)NC(=O)CNC(=O)[C@H](CO)NC(=O)[C@H](C)NC(=O)[C@H](CCCNC(=N)N)NC(=O)[C@@H](NC(=O)[C@@H](N)[C@@H](C)O)CSSC[C@@H](C(=O)N[C@H](C(=O)O)C(C)C)NC(=O)[C@H](C)NC(=O)[C@H](CC(=O)O)NC(=O)[C@H]([C@@H](C)O)NC1=O)C(=O)N[C@@H](CCCNC(=N)N)C(=O)N[C@@H](CO)C(=O)N1CCC[C@H]1C(=O)N[C@@H](Cc1ccc(O)cc1)C(=O)N[C@@H](CC(=O)O)C(=O)N[C@@H](CCCNC(=N)N)C(=O)N[C@@H](CCCNC(=N)N)C(=O)N[C@@H](CCCNC(=N)N)C(=O)N[C@@H](CCCNC(=N)N)C(=O)N[C@@H](Cc1ccc(O)cc1)C(=O)N2`, for which the negative logarithm of the IC50 (pIC50) was 6.04.
Next, `CC[C@H](C)[C@@H]1NC(=O)[C@H](CCCNC(=N)N)NC(=O)[C@H](CCCNC(=N)N)NC(=O)[C@@H](NC(=O)[C@H](Cc2ccc(O)cc2)NC(=O)[C@H](CCCNC(=N)N)NC(=O)[C@H](CCCNC(=N)N)NC(=O)[C@H](CCCNC(=N)N)NC(=O)[C@H](CCCNC(=N)N)NC(=O)[C@H](CC(=O)O)NC(=O)[C@H](Cc2ccc(O)cc2)NC(=O)[C@@H]2CCCN2C(=O)[C@H](CO)NC(=O)[C@H](CCCNC(=N)N)NC(=O)[C@@H]2CSSC[C@H](NC(=O)[C@@H](N)[C@@H](C)O)C(=O)N[C@@H](CCCNC(=N)N)C(=O)N[C@@H](CO)C(=O)N[C@@H](CO)C(=O)NCC(=O)N[C@@H](CCCNC(=N)N)C(=O)N[C@@H](Cc3ccc(O)cc3)C(=O)N2)CSSC[C@@H](C(=O)N[C@H](C(=O)O)C(C)C)NC(=O)[C@H](C)NC(=O)[C@H](CC(=O)O)NC(=O)[C@H](C)NC1=O`: 5.41; `CC[C@H](C)[C@@H]1NC(=O)[C@H](CCCNC(=N)N)NC(=O)[C@H](CCCNC(=N)N)NC(=O)[C@@H](NC(=O)[C@H](Cc2ccc(O)cc2)NC(=O)[C@H](CCCNC(=N)N)NC(=O)[C@H](CCCNC(=N)N)NC(=O)[C@H](CCCNC(=N)N)NC(=O)[C@H](C)NC(=O)[C@H](CC(=O)O)NC(=O)[C@H](Cc2ccc(O)cc2)NC(=O)[C@@H]2CCCN2C(=O)[C@H](CO)NC(=O)[C@H](CCCNC(=N)N)NC(=O)[C@@H]2CSSC[C@H](NC(=O)[C@H](N)[C@H](C)O)C(=O)N[C@@H](CCCNC(=N)N)C(=O)N[C@@H](CO)C(=O)N[C@@H](CO)C(=O)NCC(=O)N[C@@H](CCCNC(=N)N)C(=O)N[C@@H](Cc3ccc(O)cc3)C(=O)N2)CSSC[C@@H](C(=O)N[C@H](C(=O)O)C(C)C)NC(=O)[C@H](C)NC(=O)[C@H](CC(=O)O)NC(=O)[C@H]([C@@H](C)O)NC1=O`: 5.56.
